According to patent publication US20240059741A1, “COMPOSITION FOR PREVENTION OR TREATMENT OF SARS-COV-2 INFECTION” (priority 2020, published 2024):

Columns and labels:
[1] = biological target: T1, SARS-CoV-2 S1 protein-His Tag (AcroBiosystems, S1N-C52H3-100UG) (SARS-CoV-2), P0DTC2
[2] = biological target: T1, SARS-CoV-2 S1 protein-His Tag …; remark: listed apart in the source
[3] = biological target: T1, SARS-CoV-2 S1 protein-His Tag …; remark: listed apart in the source

Binder	Kd [1]	koff [1]	kon [1]	Kd [2]	Kd [3]	koff [3]
IEEQAKTFLDKFNHEAEDLFYQSSLASGPGCLGKGDCRIL [CSNP1]	311 nM	0.000188 s⁻¹	603 M⁻¹ s⁻¹	300 nM		
LQAANFLDKDNDEKEDLFYKSSLASPGGCLGKGDCRIL [CSNP2]					31800 nM	0.000498 s⁻¹

Where two headings read alike, the source gives them in different places.
